Results of unrelated studies side by side (data: NIAID ChemDB).

Common to all: whole-cell or culture tests; agent: Herpes simplex virus 1; measure: EC50

Blank or dashed fields: not listed here. ECn is the concentration giving n% inhibition of infection, replication or growth. Rows are shuffled and stem from different studies.

SMILES | strain | cell line | read by | result
COc1cccc2c1C(=O)c1c(O)c3c(c(O)c1C2=O)C[C@@](O)(C(=O)CO)C[C@@H]3O[C@H]1C[C@H](N)[C@H](O)[C@H](C)O1 |  | VERO | virus yield | >1 µM
Nc1nc2c(ncn2CC(CO)CCO)c(=O)[nH]1 | R35 | HEL | cytopathic effect / ELISA | 4.6 µM
O=c1[nH]c(=O)n([C@H]2C[C@H](O)[C@@H](CO)O2)cc1I | KOS | PRK | cytopathic effect | 0.15 µg/mL
O=C(NCc1ccc(Cl)cc1)c1cn2c3c(cc(CN4CCOCC4)cc3c1=O)OC(c1cccnc1)C2 | SC16-S1 (acyclovir-resistant) | HFF | plaque count | 5.9 µM
O=C1C(=O)N([C@@H]2O[C@H](COCc3ccccc3)[C@@H](OCc3ccccc3)[C@H]2OCc2ccccc2)c2ccc(I)cc21 |  | VERO | virus yield | >50 µM
O=C(NCc1ccc(Cl)cc1)c1c[nH]c2c(F)cccc2c1=O | 294 |  | plaque count | 29 µM
O=C(NNCc1cccc(O)c1O)c1ccccc1O | KOS | HFF | PCR | 0.35 µM
C/C(O)=C1\C(=N)N(COCCO)S(=O)(=O)N=C1N | VMW1837 (TK-) | E6SM |  | >400 µg/mL
Nc1nc2c(ncn2COCCO)c(=O)[nH]1 | KOS | ESM | cytopathic effect | 0.07 µg/mL
Clc1cccc(-c2nn3c(c2-c2ccnc(NC4CCCC4)n2)CC=[N+]=C3N2CCOCC2)c1 |  |  | hybridisation | 0.2 µM
O=c1[nH]c(=O)n([C@H]2C[C@H](O)[C@@H](CO)O2)cc1I | KOS | BSC-1 | cytopathic effect | 0.4 µg/mL
O=c1ccnc2c(Cl)c3[nH]ccnc3cc12 | KOS | VERO | MTT | 90 µM
Nc1ncnc2c1ncn2[C@@H]1O[C@H](CO)[C@@H](O)[C@@H]1O | KOS | VERO | cytopathic effect | 70 µg/mL
NC(N)=N/N=C1/C/C(=N\N=C(N)N)c2cc3ccccc3cc21 | 13 | VERO | virus yield | 2 µM
Oc1ccc([C@H]2c3c(O)cc(O)cc3[C@H]3c4c(cc(O)c5c4[C@H]2[C@@H](c2ccc(O)cc2)[C@@H]5c2cc(O)cc(O)c2)O[C@@H]3c2ccc(O)cc2)cc1 |  | VERO | MTT | 16.7 µM
O=C1Nc2ccc(Cl)cc2C1=O |  | VERO | virus yield | >50 µM
CCCCC(C)(C)[C@H](O)/C=C/[C@H]1C=CC(=O)[C@@H]1CCCCCCC(=O)O | KOS | HFF | hybridisation | 7.3 µg/mL
Brc1cccc(-c2cc3c(-c4ccnc(NC5CCCC5)n4)ccc(NC4CCCC4)n3n2)c1 | SC16 | VERO 76 | antigen / hybridisation | 0.31 µM
CC(=O)OCCOCN1C=CC(=O)N(COCCOC(C)=O)S1(=O)=O | McIntyre | E6SM |  | >400 µg/mL
Nc1ncnc2c1ncn2[C@@H]1O[C@H](CO)[C@@H](O)[C@@H]1O | ACG-resistant | RK-13 | plaque count | 19 µM
Nc1nc2c(ncn2CC(CO)CCO)c(=O)[nH]1 | C42 | Primary mouse cells | plaque count | 0.1 µM
Cn1cc(C(=O)NCc2ccc(Cl)cc2)c(=O)c2cc(CN3CCOCC3)ccc21 | E-115 | HFF | plaque count | 7.7 µM
Fc1ccc(-c2[nH]n3c(=S)nccc3c2-c2ccnc(NC3CCCC3)n2)cc1 |  |  | hybridisation | >40 µM
CCCCCCCC/C=C\CCCCCCCOCCOP(=O)(O)CO[C@H](CO)Cn1cnc2c(N)ncnc21 |  | MRC-5 | hybridisation | <0.0009 µM
Oc1ccc([C@@H]2c3c(O)cc(O)cc3[C@H]3c4c(cc(O)cc4[C@@H]2[C@H]2c4cc(O)cc5c4[C@@H](c4cc(O)cc(O)c4[C@@H]2c2ccc(O)cc2)[C@H](c2ccc(O)cc2)O5)O[C@@H]3c2ccc(O)cc2)cc1 |  | VERO | MTT | 24.1 µM
Cc1nc(N(C)C(=O)Cc2ccc(-c3ccccn3)cc2)sc1S(N)(=O)=O | KT2 | VERO | plaque count | 0.04 µM
O=c1[nH]c(=O)n([C@H]2C[C@H](O)[C@@H](CO)O2)cc1/C=C/Br | KOS | HEL | cytopathic effect | 0.01 µg/mL
Nc1nc2c(ncn2COC(CO)CO)c(=O)[nH]1 | KOS | WI-38 | hybridisation | <0.004 µM
CCOC(=O)COc1ccc(-c2cc3c(-c4ccnc(NC5CCCC5)n4)ccc(NC4CCCC4)n3n2)cc1 | SC16 | VERO 76 | antigen / hybridisation | 3.29 µM
Nc1nc(=O)n([C@H]2C[C@H](O)[C@@H](CO)O2)cc1F |  | HeLa | virus yield | <50 µM
CSCc1cn([C@H]2C[C@H](O)[C@@H](CO)O2)c(=O)[nH]c1=O | VEO231 | PRK | cytopathic effect | 10 µg/mL
CC1=CC(=O)N(c2ccccc2)S(=O)(=O)N1COCCO | VMW1837 (TK-) | E6SM |  | >400 µg/mL
Nc1ncnc2c1c(Cl)cn2COC(CO)CO |  | HFF | virus yield | <22 µM
Nc1nc2c(ncn2COC2COP(=O)(O)OC2)c(=O)[nH]1 | R35 | HEL | cytopathic effect / ELISA | 7.8 µM
Fc1ccc(-c2nn3c(c2-c2ccnc(NC4CCCC4)n2)CC=[N+]=C3N2CCCCC2)cc1 |  |  | hybridisation | 1 µM
c1ccc(Oc2ccc(-c3cc4c(-c5ccnc(NC6CCCC6)n5)ccc(NC5CCCC5)n4n3)cc2)cc1 | SC16 | VERO 76 | antigen / hybridisation | 0.9 µM
Nc1nc2c(ncn2COC(CO)CO)c(=O)[nH]1 | 03-16620 |  | PCR | 41.5 µM
O=C(Cn1nnc2cc3cccnc3c(Cl)c21)Cn1nnc2cc3cccnc3c(Cl)c21 | KOS | VERO | MTT | >100 µM
Nc1ccn([C@H]2C[C@H](O)[C@@H](CO)O2)c(=O)n1 |  | HeLa | virus yield | <26 µM
O=C1C(=O)N([C@@H]2O[C@H](COCc3ccccc3)[C@@H](OCc3ccccc3)[C@H]2OCc2ccccc2)c2cc(Br)cc(Br)c21 |  | VERO | virus yield | <50 µM
Oc1ccc([C@H]2c3c(O)cc(O)cc3[C@@H]3c4c(cc(O)c5c4[C@H]2[C@@H](c2cc(O)cc(O)c2)[C@@H]5c2ccc4c(c2)[C@@H](c2cc(O)cc(O)c2)[C@H](c2ccc(O)cc2)O4)O[C@H]3c2ccc(O)cc2)cc1 |  | VERO | MTT | 9.1 µM
[N-]=[N+]=NCc1cn([C@H]2C[C@H](O)[C@@H](CO)O2)c(=O)[nH]c1=O | VEX538 | PRK | cytopathic effect | 10 µg/mL
Oc1ccc([C@@H]2c3c(O)cc(O)cc3[C@H]3c4c(cc(O)c5c4[C@@H]2[C@H](c2ccc(O)cc2)[C@H]5c2cc(O)cc(O)c2)O[C@@H]3c2ccc(O)cc2)cc1 |  | VERO | MTT | 12.1 µM
O=Cc1cn([C@H]2C[C@H](O)[C@@H](CO)O2)c(=O)[nH]c1=O | VEW257 | PRK | cytopathic effect | 1 µg/mL
OC1=CC2C3C(=C1)O[C@H](c1ccc(O)cc1)[C@@H]3c1cc(O)cc(O)c1[C@@H]2[C@@H](c1ccc(O)cc1)[C@H](c1ccc(O)cc1)[C@H]1c2c(O)cc(O)cc2[C@H]2C3C(=CC(O)=CC31)O[C@H]2c1ccc(O)cc1 |  | VERO | MTT | 27.9 µM
O=C1C(=O)N([C@@H]2O[C@H](COCc3ccccc3)[C@@H](OCc3ccccc3)[C@H]2OCc2ccccc2)c2ccccc21 |  | VERO | virus yield | <50 µM
Nc1nc2c(ncn2C[C@@H](CO)CCO)c(=O)[nH]1 | R35 | HEL | cytopathic effect / ELISA | 0.8 µM
Brc1ccccc1-c1cc2c(-c3ccnc(NC4CCCC4)n3)ccc(NC3CCCC3)n2n1 | SC16 | VERO 76 | antigen / hybridisation | 0.85 µM
Nc1nc2c(ncn2CC[C@@H](O)CO)c(=O)[nH]1 | C42 | Primary mouse cells | plaque count | 0.2 µM
COc1ccccc1-c1nc2cc3ncccc3cc2[nH]1 | KOS | VERO | MTT | 75 µM
CCc1cn([C@@H]2OC3COP(=O)(O)OC3[C@H]2O)c(=O)nc1N | KOS |  |  | >400 µg/mL

A second listing of 4 rows from above:

{"SMILES": "Nc1nc(=O)n([C@H]2C[C@H](O)[C@@H](CO)O2)cc1F", "cell line": "HeLa", "read by": "virus yield", "result": "<50 µM"}
{"SMILES": "O=C(NCc1ccc(Cl)cc1)c1cn2c3c(cc(CN4CCOCC4)cc3c1=O)OC(c1cccnc1)C2", "strain": "SC16-S1 (acyclovir-resistant)", "cell line": "HFF", "read by": "plaque count", "result": "5.9 µM"}
{"SMILES": "Nc1ncnc2c1c(Cl)cn2COC(CO)CO", "cell line": "HFF", "read by": "virus yield", "result": "<22 µM"}
{"SMILES": "CCCCCCCC/C=C\\CCCCCCCOCCOP(=O)(O)CO[C@H](CO)Cn1cnc2c(N)ncnc21", "cell line": "MRC-5", "read by": "hybridisation", "result": "<0.0009 µM"}